Pooled drug test results. Numbers come from NIAID ChemDB, via PubChem.

All rows: enzyme or target tests

Two numbers with a dash give a range or band. ICn: concentration for n% inhibition. Inhibition is in % at the dose shown (toxicity tests: loss of growth or viability). An empty or dashed field is not shown. Rows are shuffled and stem from different studies. Fold resistance has wild type as its base.

SMILES,mutations,protein,organism,strain,dose,read by,measure,result
COc1ccc2c(c1)N(C(=O)OC(C)C)[C@@H](CSC)C(=S)N2,RT-D67N K70R T215F K219Q,Reverse transcriptase,HIV,-,-,RT activity,IC50,0.006 µg/mL
CCOC(=O)C(C(=O)OCC)c1cn(S(=O)(=O)c2ccc(C)cc2)c2ccc(NC(=O)c3cccc(C)c3O)cc12,Y143R,Integrase,HIV-1,-,-,strand transfer / fluorescence,fold resistance,1
Cc1cccc(C)c1OCC(=O)N[C@@H](Cc1ccccc1)[C@H](OC(=O)CCCC(=O)NCCC(=O)OC[C@H]1O[C@@H](n2cc(C)c(=O)[nH]c2=O)C[C@@H]1N=[N+]=[N-])C(=O)N1CSC(C)(C)[C@H]1C(=O)NC(C)(C)C,-,Protease + Reverse transcriptase,HIV-1,-,-,-,IC50,>5 µM
CC(C)CCN(C[C@@H](O)[C@H](Cc1ccccc1)NC(=O)OCc1ccccc1)C(=O)NC(C)(C)C,-,Protease,HIV,-,-,fluorescence,IC50,0.112 µM
Nc1nc2c(ncn2[C@H]2CC[C@@H](COP(=O)(O)OP(=O)(O)OP(=O)(O)O)O2)c(=O)[nH]1,RT-N137K,Reverse transcriptase,HIV,-,-,nucleotide incorporation / radiometric,fold resistance,128
Nc1ccn([C@@H]2CS[C@H](COP(=O)(O)OP(=O)(O)OP(=O)(O)O)O2)c(=O)n1,RT-T215Y,Reverse transcriptase,HIV-1,-,-,nucleotide incorporation / radiometric,fold resistance,2.6
Cc1c(N)cccc1C(=O)N[C@@H](Cc1ccccc1)[C@H](O)CN(CC(C)C)S(=O)(=O)c1ccc2ncsc2c1,-,Protease,HIV,-,-,fluorescence,IC50,0.006 µM
Cc1cc(SC2=C(O)C[C@@](CCc3ccc(N)cc3)(C(C)C)OC2=O)c(C(C)(C)C)cc1CO,PR-D30N,Protease,HIV-1,-,-,HPLC / absorbance,fold resistance,1.2
CN(C)CC/C=C1/c2ccccc2COc2ccc(CC(=O)O)cc21,-,Integrase,HIV-1,-,10 µM,AlphaScreen,inhibition,10.76%
NCC1O[C@H](O[C@H]2C(N)C[C@@H](N)C(O)[C@H]2O[C@@H]2O[C@H](Cn3cc(CNC(=O)[C@@H](N)Cc4cnc[nH]4)nn3)[C@H](O[C@H]3O[C@@H](CN)[C@@H](O)C(O)C3N)C2O)C(N)[C@@H](O)[C@@H]1O,-,Tat:TAR/LTR,HIV-1,-,-,RNase H / fluorescence,IC50,0.683 µM
Nc1nc2c(ncn2[C@H]2C[C@H](O)[C@@H](COP(=O)(O)OP(=O)(O)OP(=O)(O)O)O2)c(=O)[nH]1,RT-Q151M,Reverse transcriptase,HIV-1,-,-,nucleotide incorporation / radiometric,fold resistance,0.67
Nc1nc2c(ncn2[C@H]2CC[C@@H](COP(=O)(O)OP(=O)(O)OP(=O)(O)O)O2)c(=O)[nH]1,RT-Y181I,Reverse transcriptase,HIV,-,-,nucleotide incorporation,fold resistance,0.75
CN(C)CCCNC(=O)c1cc(NC(=O)c2cc(NC(=O)c3cc(NC(=O)c4ccc(C(=O)Nc5cc(C(=O)Nc6cc(C(=O)Nc7cc(C(=O)NCCCN(C)C)n(C)c7)n(C)c6)n(C)c5)nc4)cn3C)cn2C)cn1C,-,Integrase,HIV-2,-,-,3′ processing,IC50,0.52 µM
CC(C)CN(C[C@@H](O)[C@H](Cc1ccccc1)NC(=O)OC1CCOC1)S(=O)(=O)c1ccc2ncsc2c1,-,Protease,HIV,-,-,fluorescence,IC50,0.004 µM
CCOC(=O)C(C(=O)OCC)c1cn(S(=O)(=O)c2ccc(C)cc2)c2ccc(NC(=O)c3cccc([N+](=O)[O-])c3)cc12,Y143R,Integrase,HIV-1,-,-,strand transfer / fluorescence,fold resistance,1
c1ccc(C2SCc3nc4ccccc4n32)cc1,RT-K103N Y181I Y188L,Reverse transcriptase,HIV,-,-,-,fold resistance,>2
O=C1N(Cc2ccc(CO)cc2)[C@H](COc2ccccc2)[C@H](O)[C@@H](O)[C@@H](COc2ccccc2)N1Cc1ccc(CO)cc1,PR-I84V,Protease,HIV,-,-,fluorescence,fold resistance,1.74
O=C(O[C@@H]1Cc2c(O)cc(O)cc2O[C@@H]1c1ccc(O)c(O)c1)c1cc(O)c(O)c(O)c1,-,gp120 + CD4,HIV-1,-,-,fluorescence,IC50,>100 µM
Nc1ccn([C@H]2CC[C@@H](COP(=O)(O)OP(=O)(O)OP(=O)(O)O)O2)c(=O)n1,RT-L74V,Reverse transcriptase,HIV-1,-,-,nucleotide incorporation / radiometric,fold resistance,2.85
O=C(CO)N[C@@H]([C@@H](O)[C@H](O)[C@H](O)CO)[C@@H](O)C(=O)C(=O)O,-,gp120,HIV-1,MN,200 µM,-,inhibition,86.8%
O=c1c2ccccc2[se]n1-c1ccccn1,-,Capsid,HIV-1,-,-,FRET / fluorescence,IC50,0.1359 µM
CNC(=O)[C@@H](NC(=O)[C@H](OCc1ccccc1)[C@H](O)[C@@H](O)[C@@H](OCc1ccccc1)C(=O)N[C@H]1c2ccccc2C[C@H]1O)C(C)C,PR-G48V V82A I84V L90M,Protease,HIV,-,-,-,Ki,0.069 µM
Cc1cccc(C)c1OCC(=O)N[C@@H](Cc1ccccc1)[C@H](O)CN1CC[C@@H](Sc2ccncc2)C[C@H]1C(=O)NC(C)(C)C,PR-L23I V32I M46I I47V I54M A71V I84V,Protease,HIV,-,-,fluorescence,fold resistance,12400
Cc1cccc(C)c1OCC(=O)N[C@@H](Cc1ccccc1)[C@H](OC(=O)CCC(=O)NCC(=O)OC[C@H]1O[C@@H](n2cc(C)c(=O)[nH]c2=O)C[C@@H]1N=[N+]=[N-])C(=O)N1CSC(C)(C)[C@H]1C(=O)NC(C)(C)C,-,Protease + Reverse transcriptase,HIV-1,-,-,-,IC50,>5 µM
Cc1c(O)cccc1C(=O)N[C@@H](Cc1ccccc1)[C@H](O)CN(CC(C)C)S(=O)(=O)c1ccc2ncsc2c1,-,Protease,HIV,-,-,fluorescence,IC50,0.002 µM
CC(C)[C@H](NC(=O)c1ccc2ccccc2n1)C(=O)N[C@@H](Cc1ccccc1)[C@H](O)CN1CC[C@@H](SCc2cccnc2)C[C@H]1C(=O)NC(C)(C)C,PR-V32I,Protease,HIV,-,-,fluorescence,Ki,0.000039 µM
COc1cc(C[C@@]2(O)CO[C@H](c3ccc(O)c(OC)c3)[C@H]2CO)ccc1O,-,gp41,HIV-1,-,50 µg/mL,ELISA,inhibition,1.9%
O=S1(=O)N(Cc2ccc(CO)cc2)[C@H](COc2ccccc2)[C@H](O)[C@@H](O)[C@@H](COc2ccccc2)N1Cc1ccc(CO)cc1,PR-V82A I84V L90M,Protease,HIV,-,-,-,Ki,0.117 µM
CC(C)CN(C[C@@H](O)[C@H](Cc1ccccc1)NC(=O)[C@@H](C)CS(C)(=O)=O)S(=O)(=O)c1ccc2ncsc2c1,-,Protease,HIV,-,-,fluorescence,IC50,0.002 µM
C[C@]1(Cn2ccnn2)[C@H](C(=O)O)N2C(=O)C[C@H]2S1(=O)=O,-,Integrase,HIV-1,-,10 µM,AlphaScreen,inhibition,0%
Nc1ccn([C@H]2C[C@H](O)[C@@H](COP(=O)(O)OP(=O)(O)OP(=O)(O)O)O2)c(=O)n1,RT-Q151M,Reverse transcriptase,HIV-1,-,-,nucleotide incorporation / radiometric,fold resistance,1.1
COc1ccc2c(c1)c(CC(=O)O)c(C)n2C(=O)c1ccc(Cl)cc1,-,Integrase,HIV-1,-,10 µM,AlphaScreen,inhibition,30.42%
O=C(O)C(=O)/C=C(\O)c1cn(Cc2cc(F)ccc2F)c2ccc(F)cc12,G140S,Integrase,HIV-1,-,-,strand transfer / fluorescence,fold resistance,6
COC(=O)c1cc(C(O)(c2ccc(O)c(C(=O)OC)c2)c2ccc(O)c(C(=O)OC)c2)ccc1O,-,Integrase,HIV,-,-,substrate cleavage,IC50,>100 µM
CC(C)=CCOc1cc(NC(=S)c2ccoc2C)ccc1Cl,RT-N137S,Reverse transcriptase,HIV,-,-,nucleotide incorporation / radiometric,fold resistance,0.45
Cc1cn([C@@H]2O[C@H](CO[Si](C)(C)C(C)(C)C)C3(OS(=O)(=O)C=C3N)[C@H]2O[Si](C)(C)C(C)(C)C)c(=O)n(C)c1=O,RT-Y181I,Reverse transcriptase,HIV,-,-,nucleotide incorporation,IC50,>750 µM
Cc1cn([C@@H]2O[C@H](CO[Si](C)(C)C(C)(C)C)C3(OS(=O)(=O)C=C3N)[C@H]2O[Si](C)(C)C(C)(C)C)c(=O)n(C)c1=O,RT-P140A,Reverse transcriptase,HIV,-,-,nucleotide incorporation / radiometric,IC50,0.6 µM
Cc1cc(C(O)(c2cc(C)c(O)c(C(=O)O)c2)c2cc(C)c(O)c(C(=O)O)c2)cc(C(=O)O)c1O,-,Integrase,HIV,-,-,substrate cleavage,IC50,50–100 µM
C[C@@H]1O[C@@H](O[C@@H]2[C@@H](O)[C@H](OCCc3ccc(O)c(O)c3)O[C@H](CO)[C@H]2OC(=O)/C=C/c2ccc(O)c(O)c2)[C@H](O)[C@H](O)[C@H]1O,-,gp41,HIV-1,-,-,ELISA,IC50,>50 µg/mL
O=C(NCCc1ccc(O)c(O)c1)c1cc2cc(O)c(O)cc2[nH]1,-,RNase H + Reverse transcriptase,HIV-1,-,-,RNase H / fluorescence,IC50,17.5 µM
Cc1cccc(C)c1OCC(=O)N[C@H](CCN1CC[C@@H](Sc2ncccn2)C[C@H]1C(=O)NC(C)(C)C)Cc1ccccc1,-,Protease,HIV-2,-,-,-,IC50,0.009 µM
COc1cc2ccc(=O)oc2c(O)c1O,-,gp41,HIV-1,-,-,ELISA,IC50,>50 µg/mL
CC(C)[C@H](NC(=O)c1ccc2ccccc2n1)C(=O)N[C@H](CCN1CC[C@@H](SCc2ccccn2)C[C@H]1C(=O)NC(C)(C)C)Cc1ccccc1,-,Protease,HIV-2,-,-,-,IC50,≤0.0018 µM
CC1(C)OC(=O)/C(=C/C(=O)c2cn(Cc3cc(F)ccc3F)c3ccc(F)cc23)O1,Y143R,Integrase,HIV-1,-,-,strand transfer / fluorescence,fold resistance,1
CN(C)CCCNC(=O)c1cc(NC(=O)c2cc(NC(=O)c3cc(NC(=O)c4cncc(C(=O)Nc5cc(C(=O)Nc6cc(C(=O)Nc7cc(C(=O)NCCCN(C)C)n(C)c7)n(C)c6)n(C)c5)c4)cn3C)cn2C)cn1C,-,Integrase,HIV-2,-,-,3′ processing,IC50,>100 µM
Cc1cccc(C)c1OCC(=O)N[C@@H](Cc1ccccc1)[C@H](O)CN(CC(C)C)S(=O)(=O)c1ccc2nc(N)sc2c1,-,Protease,HIV,-,-,fluorescence,IC50,0.002 µM
CN(C)CCCNC(=O)c1cc(NC(=O)c2cc(NC(=O)c3cc(NC(=O)c4cnccc4C(=O)O)cn3C)cn2C)cn1C,-,Integrase,HIV-2,-,-,3′ processing,IC50,>100 µM
O=C(O)c1cc2cc(O)c(O)cc2[nH]1,-,RNase H + Reverse transcriptase,HIV-1,-,-,RNase H / fluorescence,IC50,29 µM
Cc1cc(SC2=C(O)C[C@@](CCc3ccc(O)cc3)(C(C)C)OC2=O)c(C(C)(C)C)cc1CO,PR-V82F,Protease,HIV-1,-,-,HPLC / absorbance,fold resistance,1.1
COc1ccc(C(=O)Nc2nc3nc(-c4ccccc4)cc(C)n3n2)cc1OC,-,RNase H,HIV-1,-,-,RNase H / absorbance,IC50,>100 µg/mL
NC[C@H]1O[C@H](O[C@H]2[C@H](O)[C@@H](O)[C@H](N)C[C@@H]2N)[C@H](N)[C@@H](O)[C@@H]1O,-,Rev:RRE,HIV-1,-,-,-,IC50,>100 µM
CC(C(=O)O)c1ccc(-c2ccccc2)c(F)c1,-,Integrase,HIV-1,-,10 µM,AlphaScreen,inhibition,3.37%
Cc1cc(SC2=C(O)CC(CCc3ccc(O)cc3)(C3CCCCC3)OC2=O)c(C(C)(C)C)cc1CO,PR-V82F I84V,Protease,HIV-1,-,-,HPLC / absorbance,fold resistance,9.3
CC(C)Nc1cccnc1N1CCN(C(=O)c2cc3ccccc3[nH]2)CC1,RT-Y181I,Reverse transcriptase,HIV,-,-,nucleotide incorporation,IC50,87 µM
CCOc1nc2cccc(C(=O)O)c2n1Cc1ccc(-c2ccccc2-c2nn[nH]n2)cc1,-,Integrase,HIV-1,-,10 µM,AlphaScreen,inhibition,42.26%
Cc1cccc(C)c1OCC(=O)N[C@H](CCN1CC[C@@H](SCc2cccnc2)C[C@H]1C(=O)NC(C)(C)C)Cc1ccccc1,-,Protease,HIV-2,-,-,-,IC50,≤0.0042 µM
CO[P@](=O)(c1cc(C)cc(/C=C/C#N)c1)c1c(C(N)=O)[nH]c2ccc(Cl)c(F)c12,E138K,Reverse transcriptase,HIV,-,-,-,IC50,4.67 µM
O=c1ccc2cc(O)c(O)cc2o1,-,gp41,HIV-1,-,-,ELISA,IC50,>50 µg/mL
Cc1cc(SC2=C(O)C[C@@](CCc3ccc(O)cc3)(C(C)C)OC2=O)c(C(C)(C)C)cc1N,-,Protease,HIV,-,1 µM,HPLC,inhibition,0%
CCCCNC(=O)[C@H](N)CC[C@@H]1O[C@H](CO)[C@H](O)[C@H](O)[C@H]1O,-,gp120,HIV-1,-,1000 µg/mL,ELISA,inhibition,34%

Repeating the final 6 entries:

| SMILES | mutations | protein | organism | strain | dose | read by | measure | result |
|---|---|---|---|---|---|---|---|---|
| CCOc1nc2cccc(C(=O)O)c2n1Cc1ccc(-c2ccccc2-c2nn[nH]n2)cc1 | - | Integrase | HIV-1 | - | 10 µM | AlphaScreen | inhibition | 42.26% |
| Cc1cccc(C)c1OCC(=O)N[C@H](CCN1CC[C@@H](SCc2cccnc2)C[C@H]1C(=O)NC(C)(C)C)Cc1ccccc1 | - | Protease | HIV-2 | - | - | - | IC50 | ≤0.0042 µM |
| CO[P@](=O)(c1cc(C)cc(/C=C/C#N)c1)c1c(C(N)=O)[nH]c2ccc(Cl)c(F)c12 | E138K | Reverse transcriptase | HIV | - | - | - | IC50 | 4.67 µM |
| O=c1ccc2cc(O)c(O)cc2o1 | - | gp41 | HIV-1 | - | - | ELISA | IC50 | >50 µg/mL |
| Cc1cc(SC2=C(O)C[C@@](CCc3ccc(O)cc3)(C(C)C)OC2=O)c(C(C)(C)C)cc1N | - | Protease | HIV | - | 1 µM | HPLC | inhibition | 0% |
| CCCCNC(=O)[C@H](N)CC[C@@H]1O[C@H](CO)[C@H](O)[C@H](O)[C@H]1O | - | gp120 | HIV-1 | - | 1000 µg/mL | ELISA | inhibition | 34% |